# Data source: PubChem BioAssay AID1259414 (Drosophila RNAi Screening Center, 2018)
# Test: 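Host factors increasing or decreasing Wolbachia levels in cultured fly cells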 (primary screen)
# Cell system: Drosophila JW18 cells infected with Wolbachia
# Knock-down reagent: long dsRNA against Drosophila genes, 0.25 µg dsRNA per well of a 384-well plate
# Timing: 5 days
# Conditions: cells persistently infected with Wolbachia before knock-down; no added drug
# Detection: 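Imaged fluorescence in situ signal for Wolbachia 23S rRNA per DAPI-counted host cell, given as a robust z-score within each plate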
# Direction: Wolbachia per cell robust z: higher = more Wolbachia per host cell than the plate typical
# Hit rule: 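Hit when robust z is 1.5 or more, or -1.5 or less, in at least two of three replicates; excludes dsRNAs with several or no targets, genes not expressed in JW18 and well A1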
# The deposit covers about 24,000 reagents; this is an unselected part of those with a known target gene and a result. Of all reagents, about 1,210 (5%) are marked active. 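Inactive calls also include excluded dsRNAs with several or no targets, genes unexpressed in JW18, and well A1, regardless of score.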 Names joined by + are all predicted targets of the reagent.
Target gene,dsRNA,"Wolbachia per cell robust z, rep 1","Wolbachia per cell robust z, rep 2","Wolbachia per cell robust z, rep 3",activity call
CG10793,DRSC17760,0.328,-1.16,0.176,inactive
MED4,DRSC11014,-0.209,-1.44,-0.637,inactive
MED4,DRSC25135,1.33,0.709,-0.332,inactive
CG4041,DRSC18339,0.76,0.499,-0.00689,inactive
CG4041,DRSC26992,1.32,1.68,0.72,inactive
Odc1,DRSC07482,-0.28,-2.89,-2.37,inactive
Odc1,DRSC29610,-0.559,0.014,0.707,inactive
CG9497,DRSC03234,0.187,-0.0255,0.182,inactive
CG9497,DRSC25510,0.331,0.0686,-1.78,inactive
CG13255,DRSC11702,-1.17,-0.597,-2.17,inactive
EMC6,DRSC14386,0.515,0.539,0.205,inactive
Mekk1,DRSC16302,1.14,0.98,2.51,inactive
Mekk1,DRSC16303,1.26,1.48,0.856,inactive
CG15650,DRSC04241,0.85,1.01,-1.22,inactive
CG3770,DRSC04416,0.758,-2.3,-0.151,inactive
CG14731,DRSC14952,0.21,0.966,-4.88,inactive
GLaz,DRSC07431,0.713,0.319,0.572,inactive
lms,DRSC06387,0.923,0.644,0.627,inactive
lms,DRSC27541,-1.34,0.289,-1.86,inactive
CG32983,DRSC22367,0.82,-1.56,0.986,inactive
Arp6,DRSC19326,0.832,-0.131,0.973,inactive
Msh6,DRSC10759,-2.77,0.373,0.487,inactive
r-l,DRSC17042,0.273,-0.446,0.03,inactive
r-l,DRSC22784,0.69,-1.32,0.0239,inactive
CG1632,DRSC17558,1.2,-0.193,0.0886,inactive
CG1632,DRSC18110,0.811,1.1,-2.04,inactive
CG2201,DRSC03721,-6.6,-0.145,-0.176,inactive
CG12081,DRSC17802,0.26,0.146,-0.549,inactive
CG3065,DRSC24998,0.427,0.64,-0.777,inactive
CG7990,DRSC19296,-5.62,0.589,0.0967,inactive
CG7990,DRSC23195,0.943,0.851,-0.146,inactive
CG7990,DRSC26580,0.338,-0.72,1.16,inactive
CG15044,DRSC19620,-4.11,-0.121,-1.47,inactive
CG15044,DRSC21385,0.263,-1.1,-0.599,inactive
CG15044,DRSC28226,-0.024,-0.915,0.13,inactive
ZnT35C,DRSC01959,-0.629,0.554,0.677,inactive
CG43675 + drn,DRSC15147,1.75,0.731,1.49,inactive
Ent1,DRSC00330,0.417,0.615,-0.0518,inactive
Iml1,DRSC08249,-0.769,-1.41,-2.02,inactive
CG11141,DRSC06048,0.582,0.259,1,inactive
Actbeta,DRSC17185,0.893,0.682,1.07,inactive
Actbeta,DRSC17217,-0.332,-3.27,-1.94,inactive
CG10467,DRSC09728,-0.0983,0.258,-1.54,inactive
CG31797,DRSC02476,1.76,1.59,0.0525,inactive
CG31797,DRSC02477,0.476,1.42,1.34,inactive
ATPsynepsilonL,DRSC14548,0.46,0.419,-0.0515,inactive
ATPsynepsilonL,DRSC41489,0.0384,-0.26,0.482,inactive

8 of these entries, set out differently.
{"Target gene": "CG13255", "dsRNA": "DRSC11702", "Wolbachia per cell robust z, rep 1": -1.17, "Wolbachia per cell robust z, rep 2": -0.597, "Wolbachia per cell robust z, rep 3": -2.17, "activity call": "inactive"}
{"Target gene": "EMC6", "dsRNA": "DRSC14386", "Wolbachia per cell robust z, rep 1": 0.515, "Wolbachia per cell robust z, rep 2": 0.539, "Wolbachia per cell robust z, rep 3": 0.205, "activity call": "inactive"}
{"Target gene": "Mekk1", "dsRNA": "DRSC16302", "Wolbachia per cell robust z, rep 1": 1.14, "Wolbachia per cell robust z, rep 2": 0.98, "Wolbachia per cell robust z, rep 3": 2.51, "activity call": "inactive"}
{"Target gene": "Mekk1", "dsRNA": "DRSC16303", "Wolbachia per cell robust z, rep 1": 1.26, "Wolbachia per cell robust z, rep 2": 1.48, "Wolbachia per cell robust z, rep 3": 0.856, "activity call": "inactive"}
{"Target gene": "CG15650", "dsRNA": "DRSC04241", "Wolbachia per cell robust z, rep 1": 0.85, "Wolbachia per cell robust z, rep 2": 1.01, "Wolbachia per cell robust z, rep 3": -1.22, "activity call": "inactive"}
{"Target gene": "CG3770", "dsRNA": "DRSC04416", "Wolbachia per cell robust z, rep 1": 0.758, "Wolbachia per cell robust z, rep 2": -2.3, "Wolbachia per cell robust z, rep 3": -0.151, "activity call": "inactive"}
{"Target gene": "CG14731", "dsRNA": "DRSC14952", "Wolbachia per cell robust z, rep 1": 0.21, "Wolbachia per cell robust z, rep 2": 0.966, "Wolbachia per cell robust z, rep 3": -4.88, "activity call": "inactive"}
{"Target gene": "GLaz", "dsRNA": "DRSC07431", "Wolbachia per cell robust z, rep 1": 0.713, "Wolbachia per cell robust z, rep 2": 0.319, "Wolbachia per cell robust z, rep 3": 0.572, "activity call": "inactive"}
